Laboratory results: PubChem BioAssay AID1259414 (Drosophila RNAi Screening Center, 2018)
The deposit covers about 24,000 reagents; this is a random part of those with a known target gene and a result. Of all reagents, about 1,210 (5%) are marked active. 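Inactive calls also include excluded dsRNAs with several or no targets, genes unexpressed in JW18, and well A1, regardless of score.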 The numbers tell different reagents against one gene apart.

- Screen: 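Fly genes that alter Wolbachia amount inside host cells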 (primary screen)
- System: Drosophila JW18 cells infected with Wolbachia
- Reagent: long dsRNA against Drosophila genes, 0.25 µg dsRNA per well of a 384-well plate
- Time to read-out: 5 days
- Conditions: cells persistently infected with Wolbachia before knock-down; no added drug
- Measurement: 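Imaged fluorescence in situ signal for Wolbachia 23S rRNA per DAPI-counted host cell, given as a robust z-score within each plate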
- Scale: Wolbachia per cell robust z: higher = more Wolbachia per host cell than the plate typical
- Rule for the call: 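Hit when robust z is 1.5 or more, or -1.5 or less, in at least two of three replicates; excludes dsRNAs with several or no targets, genes not expressed in JW18 and well A1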

snoRNA:Psi28S-2566
- Wolbachia per cell robust z, rep 1: 1.24
- Wolbachia per cell robust z, rep 2: -0.566
- Wolbachia per cell robust z, rep 3: 0.0523
- Outcome: inactive

Gpxl
- Wolbachia per cell robust z, rep 1: 0.827
- Wolbachia per cell robust z, rep 2: -3.18
- Wolbachia per cell robust z, rep 3: 0.359
- Outcome: inactive

Cpr76Bb #1
- Wolbachia per cell robust z, rep 1: 0.0648
- Wolbachia per cell robust z, rep 2: -1.03
- Wolbachia per cell robust z, rep 3: -2.42
- Outcome: inactive

Cpr76Bb #2
- Wolbachia per cell robust z, rep 1: -1.62
- Wolbachia per cell robust z, rep 2: -2.09
- Wolbachia per cell robust z, rep 3: -0.465
- Outcome: inactive

Cpr76Bb #3
- Wolbachia per cell robust z, rep 1: 0.787
- Wolbachia per cell robust z, rep 2: 0.364
- Wolbachia per cell robust z, rep 3: 0.886
- Outcome: inactive

Etfb
- Wolbachia per cell robust z, rep 1: 0.941
- Wolbachia per cell robust z, rep 2: -0.452
- Wolbachia per cell robust z, rep 3: -6.22
- Outcome: inactive

inaC #1
- Wolbachia per cell robust z, rep 1: 0.724
- Wolbachia per cell robust z, rep 2: -0.499
- Wolbachia per cell robust z, rep 3: 0.309
- Outcome: inactive

inaC #2
- Wolbachia per cell robust z, rep 1: -0.228
- Wolbachia per cell robust z, rep 2: 0.617
- Wolbachia per cell robust z, rep 3: 0.636
- Outcome: inactive

Aprt
- Wolbachia per cell robust z, rep 1: 0.272
- Wolbachia per cell robust z, rep 2: -0.0144
- Wolbachia per cell robust z, rep 3: 0.197
- Outcome: inactive

CG33468
- Wolbachia per cell robust z, rep 1: 0.354
- Wolbachia per cell robust z, rep 2: 0.415
- Wolbachia per cell robust z, rep 3: -0.911
- Outcome: inactive

Gr93c
- Wolbachia per cell robust z, rep 1: -4.7
- Wolbachia per cell robust z, rep 2: -0.578
- Wolbachia per cell robust z, rep 3: -1.35
- Outcome: inactive

CG14416 #1
- Wolbachia per cell robust z, rep 1: 0.767
- Wolbachia per cell robust z, rep 2: 0.183
- Wolbachia per cell robust z, rep 3: 1.16
- Outcome: inactive

CG14416 #2
- Wolbachia per cell robust z, rep 1: 0.207
- Wolbachia per cell robust z, rep 2: 0.205
- Wolbachia per cell robust z, rep 3: 0.566
- Outcome: inactive

Obp56d
- Wolbachia per cell robust z, rep 1: -1.33
- Wolbachia per cell robust z, rep 2: -0.806
- Wolbachia per cell robust z, rep 3: -0.23
- Outcome: inactive

5 entries already listed, arranged by “Wolbachia per cell robust z, rep 2”, descending.
Cpr76Bb #3
- Wolbachia per cell robust z, rep 1: 0.787
- Wolbachia per cell robust z, rep 2: 0.364
- Wolbachia per cell robust z, rep 3: 0.886
- Outcome: inactive

Etfb
- Wolbachia per cell robust z, rep 1: 0.941
- Wolbachia per cell robust z, rep 2: -0.452
- Wolbachia per cell robust z, rep 3: -6.22
- Outcome: inactive

Cpr76Bb #1
- Wolbachia per cell robust z, rep 1: 0.0648
- Wolbachia per cell robust z, rep 2: -1.03
- Wolbachia per cell robust z, rep 3: -2.42
- Outcome: inactive

Cpr76Bb #2
- Wolbachia per cell robust z, rep 1: -1.62
- Wolbachia per cell robust z, rep 2: -2.09
- Wolbachia per cell robust z, rep 3: -0.465
- Outcome: inactive

Gpxl
- Wolbachia per cell robust z, rep 1: 0.827
- Wolbachia per cell robust z, rep 2: -3.18
- Wolbachia per cell robust z, rep 3: 0.359
- Outcome: inactive

Continued.
Tlk #1
- Wolbachia per cell robust z, rep 1: 1.25
- Wolbachia per cell robust z, rep 2: -3.52
- Wolbachia per cell robust z, rep 3: 1.12
- Outcome: inactive

Tlk #2
- Wolbachia per cell robust z, rep 1: 0.565
- Wolbachia per cell robust z, rep 2: 1.81
- Wolbachia per cell robust z, rep 3: 1.74
- Outcome: inactive

Tlk #3
- Wolbachia per cell robust z, rep 1: 2.99
- Wolbachia per cell robust z, rep 2: -0.674
- Wolbachia per cell robust z, rep 3: 1.7
- Outcome: inactive

Tlk #4
- Wolbachia per cell robust z, rep 1: -1.23
- Wolbachia per cell robust z, rep 2: 0.0448
- Wolbachia per cell robust z, rep 3: -1.63
- Outcome: inactive

Ugt303B1
- Wolbachia per cell robust z, rep 1: 0.327
- Wolbachia per cell robust z, rep 2: -2.42
- Wolbachia per cell robust z, rep 3: 0.738
- Outcome: inactive

grass
- Wolbachia per cell robust z, rep 1: 0.619
- Wolbachia per cell robust z, rep 2: 0.602
- Wolbachia per cell robust z, rep 3: 0.815
- Outcome: inactive

CG13202
- Wolbachia per cell robust z, rep 1: -0.166
- Wolbachia per cell robust z, rep 2: 0.734
- Wolbachia per cell robust z, rep 3: -1.13
- Outcome: inactive

r-cup
- Wolbachia per cell robust z, rep 1: -2.13
- Wolbachia per cell robust z, rep 2: -0.916
- Wolbachia per cell robust z, rep 3: -1.55
- Outcome: active

Shrm #1
- Wolbachia per cell robust z, rep 1: -2.36
- Wolbachia per cell robust z, rep 2: 1.34
- Wolbachia per cell robust z, rep 3: -0.467
- Outcome: inactive

Shrm #2
- Wolbachia per cell robust z, rep 1: -1.29
- Wolbachia per cell robust z, rep 2: 0.553
- Wolbachia per cell robust z, rep 3: 1.07
- Outcome: inactive

Shrm #3
- Wolbachia per cell robust z, rep 1: -1.57
- Wolbachia per cell robust z, rep 2: -2.06
- Wolbachia per cell robust z, rep 3: -4
- Outcome: active

Shrm #4
- Wolbachia per cell robust z, rep 1: -8.4
- Wolbachia per cell robust z, rep 2: -0.672
- Wolbachia per cell robust z, rep 3: -0.13
- Outcome: inactive

Shrm #5
- Wolbachia per cell robust z, rep 1: -0.598
- Wolbachia per cell robust z, rep 2: 0.101
- Wolbachia per cell robust z, rep 3: -0.935
- Outcome: inactive
